Data as given in patent US11203613B2, “Peptidomimetic proteasome inhibitors” (CORNELL UNIVERSITY, priority 2017, dated 2021).

System: Mtb20SOG
Type: biochemical, Mycobacterium tuberculosis
Conditions: Table 2; Hu c-20S IC50 over Mtb20SOG IC50

Compound	Selectivity
CC(C)CCNc1nc(C(=O)N[C@@H](C)C(=O)NCc2ccc(F)cc2F)cc(N2CCCC2)n1 [CF-503175]	1 1
C[C@H](NC(=O)[C@H](CC(=O)N1CCCC[C@@H]1C)NS(=O)(=O)c1ccccc1)c1ncc(-c2ccc(F)cc2F)[nH]1 [CF-503142]	12
CC[C@H]1CCCCN1C(=O)C[C@H](NC(=O)N(C)CC(C)C)C(=O)N[C@@H](C)c1nc2c(F)cccc2[nH]1 [CF-503457]	2
C[C@H](NC(=O)[C@H](CC(=O)N1CCCC[C@@H]1C)NC(=O)CCc1ccccc1)C(=O)NCc1cccc(NC(=O)OC(C)(C)C)c1	2
C[C@H](NC(=O)[C@H](CC(=O)N1CCCC[C@@H]1C)NC(=O)CC1CC1)c1ncc(Cc2ccccc2)[nH]1 [CF-503136]	11
Cc1cc(C(=O)N[C@@H](CC(=O)N2CCCC[C@@H]2C)C(=O)N[C@@H](C)c2ncc(-c3ccccc3)[nH]2)no1 [CF-503102]	20 and 23
C[C@H](NC(=O)[C@H](CC(=O)N1CCCC[C@@H]1C)NC(=O)CCC1CC1)c1ncc(-c2ccc(F)cc2F)[nH]1 [CF-503204]	119
CC(C)CCC(=O)N[C@@H](CC(=O)N1CCCC[C@@H]1C)C(=O)N[C@@H](C)c1nc2c(F)cccc2[nH]1 [CF-503225]	197 and 143
CC(C)CCC(=O)N[C@@H](CC(=O)N1CCCC1)C(=O)N[C@@H](C)c1ncc(-c2ccc(F)cc2F)[nH]1 [CF-503159]	3
C[C@H](NC(=O)[C@H](CC(=O)N1CCCC[C@@H]1C)NS(=O)(=O)Cc1ccccc1)c1ncc(-c2ccc(F)cc2F)[nH]1 [CF-503140]	16
CC(C)CCC(=O)N[C@@H](CC(=O)N1CCCC[C@@H]1C)C(=O)N[C@H](C)c1nc2ccccc2[nH]1 [CF-503192]	3
C[C@H](NC(=O)[C@H](CC(=O)N1CCCC[C@@H]1C)NC(=O)CCc1ccccc1)C(=O)NCc1cccc(N)c1	138
CC[C@H]1CCCCN1C(=O)C[C@H](NC(=O)N1CCCCC1)C(=O)N[C@@H](C)c1nc2c(F)cccc2[nH]1 [CF-503454]	4
CC[C@H]1CCCCN1C(=O)C[C@H](NC(=O)OCc1ccccc1)C(=O)N[C@@H](C)c1nc2c(F)cccc2[nH]1 [CF-503461]	85 and 109
Cc1cc(C(=O)N[C@@H](CC(=O)N2CCCC[C@@H]2C)C(=O)N[C@@H](C)c2nc3ccccc3[nH]2)no1 [CF-503148]	19
CC(C)CCC(=O)N[C@@H](CC(=O)N1CCCCC1C(C)C)C(=O)N[C@@H](C)c1ncc(-c2ccc(F)cc2F)[nH]1 (stereo partly shown) [CF-503218]	20 and 19
CC(C)CCC(=O)N[C@@H](CC(=O)N1CCCC[C@@H]1C)C(=O)N[C@@H](C)c1nc2ccccc2[nH]1 [CF-503149]	139 and 199
CC[C@H]1CCCCN1C(=O)C[C@H](Nc1nc2ccccc2s1)C(=O)N[C@@H](C)c1nc2c(F)cccc2[nH]1 [CF-503445]	1
CC(C)CCS(=O)(=O)N[C@@H](CC(=O)N1CCC[C@@H]1c1ccccc1)C(=O)N[C@@H](C)c1nc2ccccc2[nH]1 [CF-503183]	45 and 40 and 80
CC(C)c1noc(N[C@@H](CC(=O)N2CCCC[C@@H]2C)C(=O)N[C@@H](C)c2ncc(-c3ccc(F)cc3F)[nH]2)n1 [CF-503477]	1
CC(C)CS(=O)(=O)N[C@@H](CC(=O)N1CCCC[C@@H]1C)C(=O)N[C@@H](C)c1ncc(-c2ccc(F)cc2F)[nH]1 [CF-503141]	13
C[C@H](NC(=O)[C@H](CC(=O)N1CCCC[C@@H]1C)NC(=O)CC1CC1)c1ncc(-c2ccc(F)cc2F)[nH]1 [CF-503138]	70 and 123
CCS(=O)(=O)N[C@@H](CC(=O)N1CCCC[C@@H]1C)C(=O)N[C@@H](C)c1ncc(-c2ccc(F)cc2F)[nH]1 [CF-503144]	15
CC[C@H]1CCCCN1C(=O)C[C@H](Nc1nc(C(C)C)no1)C(=O)NCc1nc2c(F)cccc2[nH]1 [CF-503417]	3 and 2
CC(C)CCC(=O)N[C@@H](CC(=O)N(C)C(C)C)C(=O)N[C@@H](C)c1ncc(-c2ccc(F)cc2F)[nH]1 [CF-503200]	16
C[C@H](NC(=O)[C@H](CC(=O)N1CCCC1)NC(=O)CCC(C)(C)C)c1ncc(-c2ccc(F)cc2F)[nH]1 [CF-503160]	13

Same assay, conditions: ratio IC50 (Human Constitutive) / IC50 (Mtb20SOG)

Compound	Selectivity
CC[C@H]1CCCCN1C(=O)C[C@H](NC(=O)CCC(C)C)C(=O)N[C@@H](C)c1nc2ccccc2[nH]1 [CF-503216]	50 43
CC[C@H]1CCCCN1C(=O)C[C@H](NC(=O)CCC(C)(C)C)C(=O)N[C@@H](C)c1nc2ccccc2[nH]1 [CF-503217]	54 11
Cc1cc(C(=O)N[C@@H](CC(=O)N2CCCC[C@@H]2C)C(=O)N[C@@H](C)c2ncc(-c3ccc(F)cc3)[nH]2)no1 [CF-503105]	>69 74
CC[C@H]1CCCCN1C(=O)C[C@H](NC(=O)CCN(C)C)C(=O)N[C@@H](C)c1nc2c(F)cccc2[nH]1 [CF-503356]	1
CC(NC(=O)C(CC(=O)N1CCCCC1C)NC(=O)C1CC1C(C)C)c1nc(-c2ccc(F)cc2F)c[nH]1 (stereo not shown) [CF-503475]	140
CC[C@H]1CCCCN1C(=O)C[C@H](NC(=O)CCC(C)C)C(=O)N[C@@H](C)c1nc2cc(F)c(F)cc2[nH]1 [CF-503229]	1
Cc1ccc(S(=O)(=O)N[C@@H](CC(=O)N2CCCC[C@@H]2C)C(=O)N[C@@H](C)c2ncc(-c3ccc(F)cc3F)[nH]2)cc1 [CF-503143]	13
C[C@H](NC(=O)[C@H](CC(=O)N1CCC[C@@H]1c1ccccc1)NC(=O)CC1CC1)c1ncc(Cc2ccccc2)[nH]1 [CF-503137]	161 165
CC(C)CCC(=O)N[C@@H](CC(=O)N1CCCC[C@H]1C)C(=O)N[C@@H](C)c1nc(-c2ccc(F)cc2F)c[nH]1 [CF-503199]	10
CC(C)CCS(=O)(=O)NC(CC(=O)N1CCCC1c1ccccc1)C(=O)NC(C)c1nc2ccccc2[nH]1 (stereo not shown) [CF-503184]	4
Cc1cc(C(=O)N[C@@H](CC(=O)N2CCCC[C@@H]2C)C(=O)N[C@@H](C)c2ncc(-c3ccccc3F)[nH]2)no1 [CF-503103]	>90 >49
CC(C)C(=O)CN[C@@H](CC(=O)N1CCCC[C@@H]1C)C(=O)N[C@@H](C)c1ncc(-c2ccc(F)cc2F)[nH]1 [CF-503151]	0.9
CC(C)CCC(=O)N[C@@H](CC(=O)N1CCCC[C@@H]1C)C(=O)N[C@@H](C)c1ncc(-c2ccc(F)cc2F)[nH]1 [CF-503147]	130 182 289 471 . . . 194
Cc1cc(C(=O)N[C@@H](CC(=O)N2CCCC[C@@H]2C)C(=O)N[C@@H](C)c2nc3c(F)cccc3[nH]2)no1 [CF-503274]	103
CC(C)CCC(=O)N[C@@H](CC(=O)N1CCCCCC1)C(=O)N[C@@H](C)c1nc(-c2ccc(F)cc2F)c[nH]1 [CF-503214]	15
CC(C)CCC(=O)N[C@@H](CC(=O)N1CCOC[C@@H]1C)C(=O)N[C@@H](C)c1nc(-c2ccc(F)cc2F)c[nH]1 [CF-503210]	37

Compound	Selectivity
CC(NC(=O)C(CC(=O)N1CCCCC1C)NC(=O)N(C)Cc1ccccc1)c1nc2c(F)cccc2[nH]1 (stereo not shown) [CF-503460]	63
CC[C@H]1CCCCN1C(=O)C[C@H](NC(=O)C1CC(C)(C)C1)C(=O)N[C@@H](C)c1nc2c(F)cccc2[nH]1 [CF-503464]	441 66
CC[C@H]1CCCCN1C(=O)C[C@H](NC(=O)CC1CC1)C(=O)N[C@@H](C)c1nc2c(F)cccc2[nH]1 [CF-503318]	150
CC(C)COC(=O)NC(CC(=O)N1CCCCC1C)C(=O)NC(C)c1nc2c(F)cccc2[nH]1 (stereo not shown) [CF-503463]	2
C[C@H](NC(=O)[C@H](CC(=O)N1CCCC[C@@H]1C)NC(=O)CC1CCOCC1)c1ncc(-c2ccc(F)cc2F)[nH]1 [CF-503139]	144 69
Cc1cc(C(=O)N[C@@H](CC(=O)N2CCCC[C@@H]2C)C(=O)N[C@@H](C)c2ncc(-c3ccc(F)cc3F)[nH]2)no1 [CF-503111]	175 161
CC[C@H]1CCCCN1C(=O)C[C@H](NC(=O)C1CC1C(C)C)C(=O)N[C@@H](C)c1nc2c(F)cccc2[nH]1 (stereo partly shown) [CF-530373]	3427 100 82
Cc1cc(C(=O)N[C@@H](CC(=O)N2CCC[C@@H]2c2ccccc2)C(=O)N[C@@H](C)c2nc3ccccc3[nH]2)no1 [CF-503152]	60 76
CCN(CC)C(=O)C[C@H](NC(=O)CCC(C)C)C(=O)N[C@@H](C)c1nc(-c2ccc(F)cc2F)c[nH]1 [CF-503197]	7
Cc1cc(C(=O)N[C@@H](CC(=O)N2CCC[C@@H]2c2ccccc2)C(=O)NC(C)c2nc3ccccc3[nH]2)no1 (stereo partly shown) [CF-503127]	70
CC[C@H]1CCCCN1C(=O)C[C@H](NC(=O)NCc1ccccc1)C(=O)N[C@@H](C)c1nc2c(F)cccc2[nH]1 [CF-503304]	26 29
CC(C)CCC(=O)N[C@@H](CC(=O)N1CCC[C@@H]1c1ccccc1)C(=O)N[C@@H](C)c1nc2ccccc2[nH]1 [CF-503150]	357 304 1062 134 179 1190
CC(NC(=O)C(CC(=O)N1CCCCC1C)NC(=O)C1CC1c1ccccc1)c1nc2c(F)cccc2[nH]1 (stereo not shown) [CF-503363]	158
CC[C@H]1CCCCN1C(=O)C[C@H](NC(=O)CCc1ccccc1)C(=O)N[C@@H](C)c1nc2c(F)cccc2[nH]1 [CF-503291]	377 565
Cc1cc(C(=O)N[C@@H](CC(=O)N2CCC[C@@H]2c2ccccc2)C(=O)N[C@@H](C)c2ncc(-c3ccccc3F)[nH]2)no1 [CF-503108]	7692 17 1023
Cc1cc(C(=O)N[C@@H](CC(=O)N2CCCC2)C(=O)N[C@@H](C)c2nc(-c3ccc(F)cc3F)c[nH]2)no1 [CF-503161]	5

Values joined by “and” are separate entries in the source; they are usually repeats but may differ in a detail not shown here. Identical values can stand only once.
